# In patent US8193160B2 (priority 2006, dated 2012):
# Tested on: abc3Δ appressoria
# Assay: Restoration of appressorium function (host penetration) on barley-leaf explants, abc3Δ
# Details: 48 hours, papillary callose deposition, DPI 15 mm, antioxidants 5 mM
row,Compound,appressoria with restored host penetration function
1,O=C1O[C@H]([C@@H](O)CO)C(O)=C1O,23±2.5%
2,CC(=O)N[C@@H](CS)C(=O)O,19±1.6%
3,c1ccc2c(c1)[I+]c1ccccc1-2,5.1±1.1%
